Results from article PMC8001506 (Marine Drugs, 2021).

By UniProt entry, the sequences of proteins in these tests, tags left out. Where a name states a change or a piece, a line headed by the entry shows the natural chain unless it says otherwise. Residues count along the entry.
UniProt P18916, 23-519 limits assumed: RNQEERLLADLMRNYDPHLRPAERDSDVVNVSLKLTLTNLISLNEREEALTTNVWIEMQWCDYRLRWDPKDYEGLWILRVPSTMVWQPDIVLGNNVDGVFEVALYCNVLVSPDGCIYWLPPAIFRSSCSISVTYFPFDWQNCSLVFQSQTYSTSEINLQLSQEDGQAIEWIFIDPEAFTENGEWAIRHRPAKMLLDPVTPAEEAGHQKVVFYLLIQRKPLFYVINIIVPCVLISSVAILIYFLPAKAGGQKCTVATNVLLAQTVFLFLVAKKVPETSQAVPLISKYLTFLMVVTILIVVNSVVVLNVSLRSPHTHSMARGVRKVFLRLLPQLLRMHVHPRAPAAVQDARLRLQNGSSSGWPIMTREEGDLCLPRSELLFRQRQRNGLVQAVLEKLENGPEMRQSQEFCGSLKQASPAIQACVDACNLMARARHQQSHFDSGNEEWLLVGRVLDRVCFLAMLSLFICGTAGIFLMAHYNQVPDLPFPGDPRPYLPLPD
UniProt P25108, 21-457 limits assumed: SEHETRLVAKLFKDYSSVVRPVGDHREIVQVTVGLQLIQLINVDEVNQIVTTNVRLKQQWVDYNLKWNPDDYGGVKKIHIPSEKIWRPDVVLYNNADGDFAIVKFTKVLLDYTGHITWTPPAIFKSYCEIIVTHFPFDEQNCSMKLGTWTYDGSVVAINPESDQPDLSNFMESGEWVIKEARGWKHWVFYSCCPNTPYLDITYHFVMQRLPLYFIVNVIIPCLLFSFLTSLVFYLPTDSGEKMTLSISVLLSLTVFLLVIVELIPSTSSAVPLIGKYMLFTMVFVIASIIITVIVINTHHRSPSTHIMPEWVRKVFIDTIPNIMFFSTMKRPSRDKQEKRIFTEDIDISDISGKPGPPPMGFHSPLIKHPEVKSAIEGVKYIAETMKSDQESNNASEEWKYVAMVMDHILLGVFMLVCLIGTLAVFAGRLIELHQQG
UniProt P25109, 24-501 partner limits assumed: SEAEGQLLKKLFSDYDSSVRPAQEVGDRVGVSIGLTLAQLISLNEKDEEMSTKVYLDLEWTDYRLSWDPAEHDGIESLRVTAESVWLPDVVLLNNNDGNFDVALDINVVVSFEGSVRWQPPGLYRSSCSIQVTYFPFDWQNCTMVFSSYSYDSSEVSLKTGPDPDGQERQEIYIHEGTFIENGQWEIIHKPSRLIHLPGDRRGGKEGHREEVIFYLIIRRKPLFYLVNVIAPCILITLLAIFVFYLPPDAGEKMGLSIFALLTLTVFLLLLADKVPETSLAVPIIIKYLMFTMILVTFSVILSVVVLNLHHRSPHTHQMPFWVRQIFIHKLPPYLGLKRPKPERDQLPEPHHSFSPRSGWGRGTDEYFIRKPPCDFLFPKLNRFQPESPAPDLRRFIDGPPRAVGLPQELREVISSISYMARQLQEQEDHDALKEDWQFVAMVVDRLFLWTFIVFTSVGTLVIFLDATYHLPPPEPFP
UniProt P25110, 22-517 limits assumed: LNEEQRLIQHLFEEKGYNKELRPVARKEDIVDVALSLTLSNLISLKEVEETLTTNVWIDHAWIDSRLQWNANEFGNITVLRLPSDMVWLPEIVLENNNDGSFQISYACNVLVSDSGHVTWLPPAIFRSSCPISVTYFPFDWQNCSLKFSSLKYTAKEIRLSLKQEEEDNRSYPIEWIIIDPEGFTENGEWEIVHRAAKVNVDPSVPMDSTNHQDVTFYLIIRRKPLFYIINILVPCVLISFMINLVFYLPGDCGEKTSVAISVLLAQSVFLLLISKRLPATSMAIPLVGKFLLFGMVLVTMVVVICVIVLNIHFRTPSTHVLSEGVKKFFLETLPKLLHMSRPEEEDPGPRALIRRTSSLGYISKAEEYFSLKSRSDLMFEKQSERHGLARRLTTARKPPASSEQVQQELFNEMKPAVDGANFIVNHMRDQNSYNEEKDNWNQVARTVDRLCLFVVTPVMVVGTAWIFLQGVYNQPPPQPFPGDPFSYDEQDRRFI

Target: rat (α1)2β1δγ nAChR (Rattus norvegicus, UniProt P18916+P25108+P25109+P25110)
Test: two-electrode voltage-clamp inhibition of ACh-evoked currents, (α1)2β1δγ nAChR in Xenopus oocytes
Conditions: Xenopus laevis oocytes, −70 mV, 3-min preincubation

Compound | IC50
CC(C)C[C@@H]1NC(=O)[C@H](CC(=O)O)NC(=O)[C@H](CO)NC(=O)[C@H](Cc2c[nH]cn2)NC(=O)[C@H](CCC(N)=O)NC(=O)[C@H](C(C)C)NC(=O)[C@H](CCC(N)=O)NC(=O)[C@@H]2CSSC[C@H](NC(=O)[C@@H](NC(=O)[C@H](CC(=O)O)NC(=O)[C@H](C)NC(=O)CNC(=O)[C@H](CO)NC(=O)[C@H](C)N)[C@@H](C)O)C(=O)N[C@@H](CSSC[C@@H](C(=O)O)NC1=O)C(=O)N[C@@H](CO)C(=O)N[C@@H](CC(N)=O)C(=O)N1CCC[C@H]1C(=O)N[C@@H](C)C(=O)N2 [CIC] | > 10 µM
CC(C)C[C@@H]1NC(=O)[C@H](CC(=O)O)NC(=O)[C@H](CO)NC(=O)[C@H](Cc2c[nH]cn2)NC(=O)[C@H](CCC(N)=O)NC(=O)[C@H](C(C)C)NC(=O)[C@H](CCC(N)=O)NC(=O)[C@@H]2CSSC[C@H](N)C(=O)N[C@@H](CSSC[C@@H](C(=O)O)NC1=O)C(=O)N[C@@H](CO)C(=O)N[C@@H](CC(N)=O)C(=O)N1CCC[C@H]1C(=O)N[C@@H](C)C(=O)N2 [Δ-CIC] | > 10 µM
